Compound potency records, mixed from different reports. Data source: NIAID ChemDB in PubChem.

All rows: enzyme or target tests

Inhibition is in % at the dose shown (toxicity tests: loss of growth or viability).

smiles,dose,endpoint,protein,organism,strain or isolate,method,result
CCCNC(=O)C(=O)[C@H](CC)NC(=O)[C@H](CC(C)C)NC(=O)[C@@H](NC(=O)[C@@H](NC(=O)[C@H](CC(=O)O)CC(=O)[C@H](CCC(=O)O)NC(C)=O)C(C)C)C(C)C,-,Ki,NS3 protease,Hepatitis C virus,-,-,<1 µM
CNC(=O)c1ccc(-c2ccc(Cl)cc2)c(-c2ccc3cc(-c4nc5cc(C(=O)O)ccc5n4C4CCCCC4)ccc3n2)c1,33 µM,inhibition,NS5B polymerase,Hepatitis C virus,-,-,100%
O=C(Cc1ccccc1)Nc1cscc1-c1nc(C(=O)O)c(O)c(=O)[nH]1,-,IC50,HCV polymerase,Hepatitis C virus,-,-,<25 µM
CC[C@@H](C=O)NC(=O)[C@@H]1C[C@@H](OCc2ccccc2)CN1C(=O)[C@@H](NC(=O)C1Cc2ccccc2CN1)C(C)C,-,Ki,NS3 protease,Hepatitis C virus,-,-,1–100 µM
Cc1nn(CC(=O)Nc2ccsc2-c2nc(C(=O)O)c(O)c(=O)[nH]2)c(=O)c2ccccc12,-,IC50,HCV polymerase,Hepatitis C virus,-,-,<25 µM
CNC(=O)c1c(-c2ccc(F)cc2)oc2cc(N(C)S(C)(=O)=O)c(OCc3ccc(OC)cc3)cc12,-,IC50,Nonstructural protein 5B,Hepatitis C virus,-,-,≤0.5 µM
C[C@@H](NC(=O)c1ccc2c(n1)nc(-c1ccoc1)n2C1CCCCC1)C(=O)Nc1ccc(/C=C/C(=O)O)cc1,-,IC50,NS5B polymerase,Hepatitis C virus,-,-,<0.5 µM
CC(C)C[C@@]1(C(=O)O)C[C@H](c2nnnn2C)[C@H](c2nccs2)N1C(=O)c1ccc(C(C)(C)C)c(Br)c1,-,IC50,RNA-dependent RNA polymerase,Hepatitis C virus,-,-,<50 µM
O=C(O)c1nc(-c2ccccc2NS(=O)(=O)c2ccccc2[N+](=O)[O-])[nH]c(=O)c1O,-,IC50,HCV polymerase,Hepatitis C virus,-,-,<100 µM
CC(=O)N1CCC(N(C(=O)c2ccc(Cl)cc2Cl)c2cc(-c3ccccc3)sc2C(=O)O)CC1,-,IC50,NS3 ATPase,Hepatitis C virus,-,-,<5 µM
COc1ccc(CNC(=O)Nc2ccccc2-c2nc(C(=O)O)c(O)c(=O)[nH]2)cc1,-,IC50,HCV polymerase,Hepatitis C virus,-,-,<100 µM
CC(C)C[C@@]1(C(=O)O)C[C@H](c2ncno2)[C@H](c2ccccn2)N1C(=O)c1ccc(C(C)(C)C)cc1,-,IC50,RNA-dependent RNA polymerase,Hepatitis C virus,-,-,<50 µM
Cc1ccc(C)c(S(=O)(=O)Nc2cc(-c3ccc(F)cc3)sc2C(=O)O)c1,-,IC50,NS3 ATPase,Hepatitis C virus,-,-,<5 µM
COc1nc(NCCc2ccccn2)nc(Nc2ccc3cn[nH]c3c2)n1,0.01 µg/mL,inhibition,DNA polymerase,Hepatitis B virus,-,-,20%
CNC(=O)c1c(-c2ccc(F)cc2)oc2cc(N(CCN3CCOCC3)S(C)(=O)=O)c(OC(C)C)cc12,-,IC50,Nonstructural protein 5B,Hepatitis C virus,-,-,≤0.5 µM
COc1nc(NCCc2c[nH]c3ccccc23)nc(Nc2ccc3cn[nH]c3c2)n1,10 µg/mL,inhibition,Nonstructural protein 5B,Hepatitis C virus,-,-,52%
O=C(O)c1ccc(-c2ccc(Cl)cc2)c(-c2ccc3cc(-c4nc5cc(C(=O)O)ccc5n4C4CCCCC4)ccc3n2)c1,100 µM,inhibition,NS5B polymerase,Hepatitis C virus,-,-,102%
O=C(O)/C=C/c1ccc(NC(=O)C2(NC(=O)c3ccc4c(c3)nc(-c3ccccn3)n4C3CCC3)CCCC2)cc1,-,IC50,NS5B polymerase,Hepatitis C virus,-,-,0.5–5 µM
CC[C@H](NC(=O)[C@@H](NC(=O)[C@@H](NC(=O)[C@H](CC(C)C)NC(=O)[C@@H](CCC(=O)O)NC(=O)[C@H](CC(=O)O)NC(C)=O)[C@@H](C)CC)C1CCCCC1)C(=O)/C=C/c1ccccc1,1 µM,inhibition,HCV NS3 protease,Hepatitis C virus,-,-,58%
C[C@H]1CCC[C@H](C)C1n1c(-c2ccco2)nc2cc(C(=O)NC3(C(=O)Nc4ccc(/C=C/C(=O)O)cc4)CCCC3)ccc21,-,IC50,NS5B polymerase,Hepatitis C virus,-,-,0.5–5 µM
COc1nc(NCCCN2CCOCC2)nc(Nc2ccc3cn[nH]c3c2)n1,1 µg/mL,inhibition,Nonstructural protein 5B,Hepatitis C virus,-,-,53%
O=C(O)/C=C/c1ccc(NC(=O)C2(NC(=O)c3ccc4c(c3)nc(-c3ccc[nH]3)n4C3C[C@H]4CC[C@@H]3C4)CCCC2)cc1,-,IC50,NS5B polymerase,Hepatitis C virus,-,-,0.5–5 µM
COCCOc1ccc(-c2ccc(Cl)cc2)c(-c2ccc3cc(-c4nc5cc(C(=O)O)ccc5n4C4CCCCC4)ccc3n2)c1,100 µM,inhibition,NS5B polymerase,Hepatitis C virus,-,-,95.91%
Cc1nnc([C@H]2C[C@@](CC(C)C)(C(=O)O)N(C(=O)c3ccc(C(C)(C)C)cc3)[C@H]2c2nccs2)o1,-,IC50,RNA-dependent RNA polymerase,Hepatitis C virus,-,-,<50 µM
CNC(=O)c1c(-c2ccc(F)cc2)oc2cc(-c3ccn[nH]3)c(OC(C)C)cc12,-,IC50,Nonstructural protein 5B,Hepatitis C virus,-,-,≤0.5 µM
O=C(Nc1ccsc1-c1nc(C(=O)O)c(O)c(=O)[nH]1)OCc1cccc(Cl)c1,-,IC50,HCV polymerase,Hepatitis C virus,-,-,<25 µM
Cc1ccccc1S(=O)(=O)Nc1cc(-c2ccc(N=[N+]=[N-])cc2)sc1C(=O)O,-,IC50,NS3 ATPase,Hepatitis C virus,-,-,<5 µM
COc1cc(C(=O)N2[C@@H](c3nccs3)[C@@H](c3nnc(C)o3)C[C@@]2(CC(C)C)C(=O)O)ccc1C(C)(C)C,-,IC50,RNA-dependent RNA polymerase,Hepatitis C virus,-,-,<50 µM
O=C(NC1(C(=O)Nc2ccc(-c3nc(C(=O)O)cs3)cc2)CCCC1)c1ccc2c(c1)nc(-c1ccoc1)n2C1CCCCC1,-,IC50,NS5B polymerase,Hepatitis C virus,-,-,<0.5 µM
COC(=O)c1sc(-c2ccccc2)cc1N(C(=O)c1ccc(Cl)cc1Cl)C(C)C,-,IC50,NS3 ATPase,Hepatitis C virus,-,-,5–20 µM
O=C(/C=C/c1ccc(O)c(O)c1)O[C@H]1[C@H](O)C[C@](O)(C(=O)O)C[C@H]1OC(=O)/C=C/c1ccc(O)c(O)c1,50 µg/mL,inhibition,HBsAg,Hepatitis B virus,HepG 2.2.15,ELISA,28.5%
COc1ccc(-c2nc3ccc(-c4nc5cc(C(=O)O)ccc5n4C4CCCCC4)cc3nc2-c2ccc(OC)cc2)cc1,100 µM,inhibition,NS5B polymerase,Hepatitis C virus,-,-,98.75%
O=C(NCc1ccccc1C(F)(F)F)Nc1ccsc1-c1nc(C(=O)O)c(O)c(=O)[nH]1,-,IC50,HCV polymerase,Hepatitis C virus,-,-,<25 µM
O=C(O)c1ccc2c(c1)nc(-c1ccc3nc(-c4ccccn4)ccc3c1)n2C1CCCCC1,100 µM,inhibition,NS5B polymerase,Hepatitis C virus,-,-,98.37%
CC[C@H](NC(=O)[C@@H](NC(=O)[C@@H](NC(=O)[C@H](CC(C)C)NC(=O)[C@@H](CCC(=O)O)NC(=O)[C@H](CC(=O)O)NC(C)=O)[C@@H](C)CC)C1CCCCC1)C(=O)/C=C/c1nccs1,1 µM,inhibition,HCV NS3 protease,Hepatitis C virus,-,-,50%
CNC(=O)c1c(-c2ccc(F)cc2)oc2cc(-c3c(C)noc3C)c(OCc3nccs3)cc12,-,IC50,Nonstructural protein 5B,Hepatitis C virus,-,-,≤0.5 µM
CCCNC(=O)C(=O)[C@H](CC)NC(=O)[C@H](CC(C)C)NC(=O)[C@@H](NC(=O)[C@@H](NC(=O)c1cnccn1)C(C)C)C(C)C,-,Ki,NS3 protease,Hepatitis C virus,-,-,1–100 µM
O=C(NCc1csc2ccccc12)Nc1ccsc1-c1nc(C(=O)O)c(O)c(=O)[nH]1,-,IC50,HCV polymerase,Hepatitis C virus,-,-,<25 µM
O=C(O)c1ccc2c(c1)nc(-c1ccc3nc(-c4cc(OCC(=O)N5CCCC5)ccc4-c4ccc(Cl)cc4)ccc3c1)n2C1CCCCC1,100 µM,inhibition,NS5B polymerase,Hepatitis C virus,-,-,97.19%
COc1nc(Nc2ccc3[nH]ncc3c2)nc(N2CCN(CCO)CC2)n1,-,IC50,DNA polymerase,Hepatitis B virus,-,-,0.1–1 µg/mL
O=C(O)c1ccc2c(c1)nc(-c1ccc3nc(-c4ccccc4Br)ccc3c1)n2C1CCCCC1,100 µM,inhibition,NS5B polymerase,Hepatitis C virus,-,-,98.82%
COCCNc1nc(Nc2ccc3cn[nH]c3c2)nc(OC)n1,0.1 µg/mL,inhibition,DNA polymerase,Hepatitis B virus,-,-,37%
C[C@@H](NC(=O)c1ccc2c(c1)nc(-c1ccoc1)n2C1CCCCC1)C(=O)Nc1ccc(-c2ccoc2)cc1,-,IC50,NS5B polymerase,Hepatitis C virus,-,-,0.5–5 µM
COc1ccc(-c2cccc(C)c2)c(-c2ccc3cc(-c4nc5cc(C(=O)O)ccc5n4C4CCCCC4)ccc3n2)c1,100 µM,inhibition,NS5B polymerase,Hepatitis C virus,-,-,101%
CC[C@H](NC(=O)[C@@H](NC(=O)[C@@H](NC(=O)[C@H](CC(C)C)NC(=O)[C@@H](CCC(=O)O)NC(=O)[C@H](CC(=O)O)NC(C)=O)[C@@H](C)CC)C1CCCCC1)C(=O)CCCCCC(C)C,-,IC50,HCV NS3 protease,Hepatitis C virus,-,-,1–10 µM
COc1nc(NCCc2ccccn2)nc(Nc2ccc3[nH]ncc3c2)n1,0.1 µg/mL,inhibition,Nonstructural protein 5B,Hepatitis C virus,-,-,19%
COc1cc(C(=O)N2[C@@H](c3nccs3)[C@H](c3cc(C)no3)C[C@@]2(CC(C)C)C(=O)O)ccc1C(C)(C)C,-,IC50,RNA-dependent RNA polymerase,Hepatitis C virus,-,-,<50 µM
CC[C@@H](C=O)NC(=O)[C@@H]1C[C@@H](NC(=O)Cc2ccccc2)CN1C(=O)[C@@H](NC(=O)[C@@H](NC(=O)c1cnccn1)C(C)C)C(C)C,-,Ki,NS3 protease,Hepatitis C virus,-,-,1–100 µM
Cc1noc([C@@H]2C[C@@](CC(C)C)(C(=O)O)N(C(=O)c3ccc(C(C)(C)C)c(Br)c3)[C@H]2c2ccccn2)n1,-,IC50,RNA-dependent RNA polymerase,Hepatitis C virus,-,-,<50 µM
Cc1ccc(C(=O)N(Cc2ccc([N+](=O)[O-])cc2)c2cc(-c3ccccc3)sc2C(=O)O)cc1,-,IC50,NS3 ATPase,Hepatitis C virus,-,-,<5 µM
CC[C@H](NC(=O)[C@@H](NC(=O)[C@@H](NC(=O)[C@H](CC(C)C)NC(=O)[C@@H](CCC(=O)O)NC(=O)[C@H](CC(=O)O)NC(C)=O)[C@@H](C)CC)C1CCCCC1)C(O)/C=C/CCCC(C)C,-,IC50,HCV NS3 protease,Hepatitis C virus,-,-,<10 µM
COC(=O)[C@@H]1CCCN1c1nc(Nc2ccc3cn[nH]c3c2)nc(OC)n1,1 µg/mL,inhibition,DNA polymerase,Hepatitis B virus,-,-,58%
Cc1noc([C@@H]2C[C@@](CC(C)C)(C(=O)O)N(C(=O)c3ccc(C(C)(C)C)cc3)[C@H]2c2cccs2)n1,-,IC50,RNA-dependent RNA polymerase,Hepatitis C virus,-,-,<50 µM

5 of the rows above, restated:

{"smiles": "CC(C)C[C@@]1(C(=O)O)C[C@H](c2nnnn2C)[C@H](c2nccs2)N1C(=O)c1ccc(C(C)(C)C)c(Br)c1", "endpoint": "IC50", "protein": "RNA-dependent RNA polymerase", "organism": "Hepatitis C virus", "result": "<50 µM"}
{"smiles": "O=C(Cc1ccccc1)Nc1cscc1-c1nc(C(=O)O)c(O)c(=O)[nH]1", "endpoint": "IC50", "protein": "HCV polymerase", "organism": "Hepatitis C virus", "result": "<25 µM"}
{"smiles": "COC(=O)c1sc(-c2ccccc2)cc1N(C(=O)c1ccc(Cl)cc1Cl)C(C)C", "endpoint": "IC50", "protein": "NS3 ATPase", "organism": "Hepatitis C virus", "result": "5–20 µM"}
{"smiles": "O=C(O)/C=C/c1ccc(NC(=O)C2(NC(=O)c3ccc4c(c3)nc(-c3ccccn3)n4C3CCC3)CCCC2)cc1", "endpoint": "IC50", "protein": "NS5B polymerase", "organism": "Hepatitis C virus", "result": "0.5–5 µM"}
{"smiles": "CC[C@H](NC(=O)[C@@H](NC(=O)[C@@H](NC(=O)[C@H](CC(C)C)NC(=O)[C@@H](CCC(=O)O)NC(=O)[C@H](CC(=O)O)NC(C)=O)[C@@H](C)CC)C1CCCCC1)C(=O)/C=C/c1nccs1", "dose": "1 µM", "endpoint": "inhibition", "protein": "HCV NS3 protease", "organism": "Hepatitis C virus", "result": "50%"}

Two numbers with a dash give a range or band. ICn is the concentration giving n% inhibition. Blank or dashed fields: not listed here. Rows are shuffled and stem from different studies.